For this data set the following is noted: BALB/c, mouse, in vivo, ip, 75 mg/kg.

Consider `NC(=O)c1ncn([C@@H]2O[C@H](CO)[C@@H](O)[C@H]2O)n1` [Ribavirin, ribavirin], for which the Deaths in group entry was “d One mouse died on day 2, four mice died on day 5, and two mice died on day 6”.

For the origin of these results see PMC7114261 (Antiviral Research, 2006).
